Assays:
[1] = molecular target: His-OpaR (Vibrio parahaemolyticus RIMD2210633) (UniProt Q79YV4); assay: DNase I footprinting; conditions: protected -112 to -81 relative to translation start; 10 mM Tris-HCl pH 7.5, 50 mM NaCl, 1 mM MgCl2, 0.5 mM EDTA, 0.5 mM DTT, 0.05 mg/ml salmon sperm DNA; footprinting in same buffer, 30 min at room temperature; recombinant protein; residues 1-204; protein details: 6xHis (pET28a); label: 32P at a single end (coding or non-coding strand); probe letters rebuilt from the primers and the …
[2] = molecular target: His-OpaR (Vibrio parahaemolyticus RIMD2210633) (UniProt Q79YV4); assay: EMSA; conditions: 0.05 mg/ml salmon sperm DNA, dose-dependent, 10 mM Tris-HCl pH 7.5, 50 mM NaCl, 1 mM MgCl2, 0.5 mM EDTA, 0.5 mM DTT, footprinting in same buffer, 30 min at room temperature, recombinant protein, residues 1-204, protein details: 6xHis (pET28a), label: 5'-32P, probe letters rebuilt from the primers and the genome

Sequence	binding result [1]	binding result [2]
TTGGATTTGCTGCTTAAGTTGGGCTAATAGCGGGTTATCTTGAAACATCTTTTCTTAACTTACCAATGGAGTTGGCCACACTATAATCATTGCGGGCTATTATTACTACCTAAAGCACACAAATTCGCTGTGAATTATTGATGAATTAAACAGCTCAACGGTGCTTTTCTCTTCGGAGAAACGGGCGGTAGGTGGATTTTTATGCGGATATTACCATTAGTGAGAATAAATTGTGATGTAATTCAATTTTTTCTAGCTTTTTTTATGCATTTAAGGAATAATCCGCCTCCCTTAGTCGTCCC (double strand) [vpa0607 upstream fragment (DNase I footprinting)]	binds	–
TTGGATTTGCTGCTTAAGTTGGGCTAATAGCGGGTTATCTTGAAACATCTTTTCTTAACTTACCAATGGAGTTGGCCACACTATAATCATTGCGGGCTATTATTACTACCTAAAGCACACAAATTCGCTGTGAATTATTGATGAATTAAACAGCTCAACGGTGCTTTTCTCTTCGGAGAAACGGGCGGTAGGTGGATTTTTATGCGGATATTACCATTAGTGAGAATAAATTGTGATGTAATTCAATTTTTTCTAGCTTTTTTTATGCATTTAAGGAATAATCCGCCTCCCTTAGTCGTCCCTAATGGCTTATCGCGGTTGTGTACTGTGCTAACTCCTGTCTGAATGGATTTAGTAACTGGATGAATCAGTATCGAATTGGAAGAGCATATGGGACTGTTTTTTTGTTTAATTAAGTAGGATCCCAATGCAAGATTCTGTTATTCAATTCAGCGATTTATCTCTGAATGATTCTATCCTTTCTGCTCTAGACGGAATGGGTTTCGTGTCACCAACTCCAATTCAGGCTGCGGCAATCCCACACCTATTGGAAGGTGCTGACGCGCTGGGTAAAGCACAGACGGGT (double strand) [vpa0607 upstream fragment (EMSA)]	–	binds
